Article PMC4364940, “Human β-Defensin 4 with Non-Native Disulfide Bridges Exhibit Antimicrobial Activity” (PLoS ONE, 2015)

Tests used:
[1] = system: Candida albicans (ATCC 18804); experiment: Fungicidal activity, minimum fungicidal concentration (MFC), colony counting; settings: colony counting as for bacteria; cells grown in YEPD at 30°C; mean (SD) of three independent experiments
[2] = system: Pseudomonas aeruginosa (NCTC 6750); experiment: Colony counting assay, lethal concentration (LC); settings: for lethal concentration (LC) against P. aeruginosa: colony counting, 10^6 cfu/ml, 10 mM sodium phosphate buffer pH 7.4, 2 hrs 37°C, more than 99% killing, mean (SD) of three independent experiments
[3] = system: Escherichia coli (MG1655); experiment: Colony counting assay, lethal concentration (LC); settings: for lethal concentration (LC) against E. coli: colony counting, 10^6 cfu/ml, 10 mM sodium phosphate buffer pH 7.4, 2 hrs 37°C, minimum concentration with more than 99% killing, mean (SD) of three independent experiments
[4] = system: Staphylococcus aureus (NCTC 8530); experiment: Colony counting assay, lethal concentration (LC); settings: for lethal concentration (LC) against S. aureus: colony counting, 10^6 cfu/ml, 10 mM sodium phosphate buffer pH 7.4, 2 hrs 37°C, more than 99% killing, mean (SD) of three independent experiments
bacteria and C. albicans = experiment: Antimicrobial activity, summary over all strains; settings: text summary over E. coli, P. aeruginosa, S. aureus and C. albicans
E. coli [5] = experiment: Confocal microscopy, localization of CF-labelled peptides; settings: time-lapse confocal microscopy
C. albicans = experiment: Confocal microscopy, localization of CF-labelled peptides, PI uptake, vacuole size; settings: for time of PI uptake in C. albicans / time of cytoplasmic localization of peptide in C. albicans: CF-labelled peptides
E. coli [6] = experiment: Salt sensitivity assay (150 mM NaCl); type: cell-based, Escherichia coli; settings: for activity against E. coli in the presence of 150 mM NaCl: peptides at lethal concentrations
E. coli [7] = experiment: Kinetics of bacterial killing; type: cell-based, Escherichia coli; settings: peptide treated cells plated at fixed time intervals during 2 hrs of incubation
S. aureus = experiment: Salt sensitivity assay (150 mM NaCl); type: cell-based, Staphylococcus aureus; settings: peptides at lethal concentrations
P. aeruginosa = experiment: Salt sensitivity assay (150 mM NaCl); type: cell-based, Pseudomonas aeruginosa; settings: peptides at lethal concentrations
[8] = CF-labelled peptide, time-lapse confocal microscopy

Structure (SMILES) | minimum fungicidal concentration (MFC) against C. albicans [1] | lethal concentration (LC) against P. aeruginosa [2] | lethal concentration (LC) against E. coli [3] | lethal concentration (LC) against S. aureus [4] | LC or MFC against bacteria and C. albicans (bacteria and C. albicans) | time of internalization into E. coli (E. coli [5]) | time for vacuole to cover almost the whole surface area (C. albicans; [8]) | time of PI uptake in C. albicans (C. albicans; time-lapse confocal microscopy) | time of cytoplasmic localization of peptide in C. albicans (C. albicans; time-lapse confocal microscopy) | increase in vacuole size of C. albicans (C. albicans; vacuole diameter measured with ImageJ, treated versus untreated cells, several cells from different fields) | salt sensitivity against E. coli in the absence of pmf (E. coli [6]; 150 mM NaCl with protonophore CCCP (50 μM), inset in Fig. 2) | activity against E. coli in the presence of 150 mM NaCl (E. coli [6]) | time of incubation for killing of E. coli (E. coli [7]) | activity against S. aureus in the presence of 150 mM NaCl (S. aureus) | fold higher activity as compared to native HBD4, P. aeruginosa ([2]; from LC values) | fold higher activity as compared to native HBD4, E. coli ([3]; from LC values) | fold higher activity as compared to native HBD4, S. aureus ([4]; from LC values) | activity against P. aeruginosa in the presence of 150 mM NaCl (P. aeruginosa) | time of internalization into vacuole of C. albicans (C. albicans; [8])
CC[C@H](C)[C@@H]1NC(=O)[C@H](CCCNC(=N)N)NC(=O)[C@H](Cc2ccc(O)cc2)NC(=O)[C@H](CCC(=O)O)NC(=O)[C@H](CCC(N)=O)NC(=O)[C@H](CO)NC(=O)[C@H](CCCNC(=N)N)NC(=O)[C@H](CCCCN)NC(=O)[C@H](CCCCN)NC(=O)[C@H](CCCNC(=N)N)NC(=O)[C@@H]2CSSC[C@@H](C(=O)N[C@@H](CC(C)C)C(=O)N[C@@H](CCCNC(=N)N)C(=O)N[C@@H](CCCCN)C(=O)O)NC(=O)[C@@H]3CSSC[C@H](NC(=O)[C@@H](NC(=O)[C@H](CCCNC(=N)N)NC(=O)[C@H](CC(=O)O)NC(=O)[C@H](CC(C)C)NC(=O)[C@H](CCC(=O)O)NC(=O)[C@H](Cc4ccccc4)NC(=O)[C@@H](N)CCC(=O)O)[C@@H](C)CC)C(=O)N[C@@H](CSSC[C@H](NC(=O)[C@H](CCCNC(=N)N)NC(=O)CNC1=O)C(=O)N1CCC[C@H]1C(=O)N[C@@H](CC(N)=O)C(=O)N[C@@H]([C@@H](C)O)C(=O)N[C@@H](Cc1ccc(O)cc1)C(=O)N[C@@H](C)C(=O)N3)C(=O)NCC(=O)N[C@@H](Cc1ccc(O)cc1)C(=O)NCC(=O)N[C@@H]([C@@H](C)O)C(=O)N[C@@H](C)C(=O)N[C@@H](CCCNC(=N)N)C(=O)N2 | 12.5 (0.34) μM | 5 (0.15) μM | 10 (0.46) μM | 6 (1.30) μM | 5 to 12.5 µM | internalization occurred during the time of peptide mixing with the cell suspension | 10 to 12 min | 8 to 10 min | 8 to 12 min | maximum increase | attenuation of activity by NaCl is not observed | Loss in activity | ≤ 30 min | Loss in activity |  |  |  |  | 
CC[C@H](C)[C@@H]1NC(=O)[C@H](CCCNC(=N)N)NC(=O)[C@H](Cc2ccc(O)cc2)NC(=O)[C@H](CCC(=O)O)NC(=O)[C@H](CCC(N)=O)NC(=O)[C@H](CO)NC(=O)[C@H](CCCNC(=N)N)NC(=O)[C@H](CCCCN)NC(=O)[C@H](CCCCN)NC(=O)[C@H](CCCNC(=N)N)NC(=O)[C@@H](NC(=O)[C@H](CCCNC(=N)N)NC(=O)[C@H](C)NC(=O)[C@@H](NC(=O)CNC(=O)[C@H](Cc2ccc(O)cc2)NC(=O)CNC(=O)[C@H](CSC(C)(C)C)NC(=O)[C@H](CSCNC(C)=O)NC(=O)[C@@H](NC(=O)[C@H](CCCNC(=N)N)NC(=O)[C@H](CC(=O)O)NC(=O)[C@H](CC(C)C)NC(=O)[C@H](CCC(=O)O)NC(=O)[C@H](Cc2ccccc2)NC(=O)[C@@H](N)CCC(=O)O)[C@@H](C)CC)[C@@H](C)O)CSSC[C@@H](C(=O)N[C@@H](CC(C)C)C(=O)N[C@@H](CCCNC(=N)N)C(=O)N[C@@H](CCCCN)C(=O)O)NC(=O)[C@H](CSCNC(C)=O)NC(=O)[C@H](C)NC(=O)[C@H](Cc2ccc(O)cc2)NC(=O)[C@H]([C@@H](C)O)NC(=O)[C@H](CC(N)=O)NC(=O)[C@@H]2CCCN2C(=O)[C@H](CSC(C)(C)C)NC(=O)[C@H](CCCNC(=N)N)NC(=O)CNC1=O | 5 (0.10) μM | 3 (0.11) μM | 2.5 (0.84) μM | 3.5 (1.00) μM | ≤ 5 µM | 2 to 3 min |  | 3 to 5 min |  |  |  | active | ≤ 30 min | activity was lost to a considerable extent | four-fold | two fold | four-fold | active | 
CC[C@H](C)[C@@H]1NC(=O)[C@H](CCCNC(=N)N)NC(=O)[C@H](Cc2ccc(O)cc2)NC(=O)[C@H](CCC(=O)O)NC(=O)[C@H](CCC(N)=O)NC(=O)[C@H](CO)NC(=O)[C@H](CCCNC(=N)N)NC(=O)[C@H](CCCCN)NC(=O)[C@H](CCCCN)NC(=O)[C@H](CCCNC(=N)N)NC(=O)[C@@H]2CSSC[C@@H](C(=O)N[C@@H](CC(C)C)C(=O)N[C@@H](CCCNC(=N)N)C(=O)N[C@@H](CCCCN)C(=O)O)NC(=O)[C@H](CSSC[C@H](NC(=O)[C@@H](NC(=O)[C@H](CCCNC(=N)N)NC(=O)[C@H](CC(=O)O)NC(=O)[C@H](CC(C)C)NC(=O)[C@H](CCC(=O)O)NC(=O)[C@H](Cc3ccccc3)NC(=O)[C@@H](N)CCC(=O)O)[C@@H](C)CC)C(=O)N[C@@H](CSC(C)(C)C)C(=O)NCC(=O)N[C@@H](Cc3ccc(O)cc3)C(=O)NCC(=O)N[C@@H]([C@@H](C)O)C(=O)N[C@@H](C)C(=O)N[C@@H](CCCNC(=N)N)C(=O)N2)NC(=O)[C@H](C)NC(=O)[C@H](Cc2ccc(O)cc2)NC(=O)[C@H]([C@@H](C)O)NC(=O)[C@H](CC(N)=O)NC(=O)[C@@H]2CCCN2C(=O)[C@H](CSC(C)(C)C)NC(=O)[C@H](CCCNC(=N)N)NC(=O)CNC1=O | 10 (2.96) μM | 6.5 (1.09) μM | 10 (2.01) μM | 7.5 (0.28) μM | 5 to 12.5 µM | internalization occurred during the time of peptide mixing with the cell suspension |  | ≤ 5 min | 8 to 10 min |  |  | considerable activity | 80 min | not against S. aureus |  |  |  | considerable activity | 12 to 14 min
